As a reminder, the IC50 is the concentration at which inhibition is half-maximal. A higher IC50 goes with weaker potency in that assay.

In this experiment the target is Replicase polyprotein 1ab (Severe acute respiratory syndrome coronavirus 2, UniProt P0DTD1). As to the kind of experiment: In Vitro Inhibition of SARS NSP14/NSP10 Exonuclease Activity.

As for `CC(C)=CCOc1ccc(/C=C/C(=O)c2ccc(OCC=C(C)C)cc2OCC(=O)O)cc1`, half-maximal inhibition (IC50) was put at 6.02 µM. This lies in the single-digit micromolar range.

These data come from BindingDB's records for US20250213569.
